Earlier results in article PMC9321718 (Pharmaceuticals, 2022).
Read-outs that look alike come from different tables or passages of the source.

Parameters: method as in doi:10.1016/j.foodres.2009.06.006
Conditions: cited from earlier work

Question: For `C=CCc1ccc(O)c(OC)c1` [Eugenol, 4-allyl-2-methoxyphenol], which complexation constant (α and γ forms of CD) is on record?
Answer: Its complexation constant is 10 to 100 M⁻¹.

Question: And the complexation constant (β-form of CD)?
Answer: Its complexation constant is 1000 M⁻¹.
